Test results published in patent US20040121316A1 (priority 2002, published 2004).
Structures were worked out from names or drawings and are uncertain.

Tests used:
[1] = tested on: mutant HIV-1 I50V #1 (M46I/I47V/I50V); test: Resistance Evaluation, I50V #1 fold change; type: cell-based; conditions: EC50 of mutant M46I/I47V/I50V relative to wild type, class symbols
[2] = tested on: mutant HIV-1 I84V/L90M; test: Resistance Evaluation, I84V/L90M fold change; type: cell-based; conditions: EC50 of mutant I84V/L90M relative to wild type, class symbols
[3] = tested on: HIV-1 48V54V82A; test: Cell-based assay (MT-4) EC50, 48V54V82A; conditions: read-out: Cell-based assay (MT-4) EC50/nM 48V54V82A; MT-4, 48V54V82A
[4] = tested on: HIV-1 84V90M; test: Cell-based assay (MT-4) EC50, 84V90M; conditions: read-out: Cell-based assay (MT-4) EC50/nM 84V90M; MT-4, 84V90M
[5] = tested on: HIV-1 46I50V; test: Cell-based assay (MT-4) EC50, 46I50V; conditions: read-out: Cell-based assay (MT-4) EC50/nM 46I50V; MT-4, 46I50V
[6] = tested on: WT HIV-1; test: Cell-based assay (MT-4) EC50, WT; conditions: read-out: Cell-based assay (MT-4) EC50/nM WT; MT-4, WT
[7] = tested on: HIV-1 30N82I88D; conditions: read-out: Cell-based assay (MT-4) EC50/nM 30N82I88D; MT-4, 30N82I88D
[8] = tested on: wild-type HIV-1 strain IIIB; test: Anti-HIV-1 Cell Culture Assay (EC50); type: cell-based; parameters: scale not given here; conditions: class symbols, Table 10; tested form: TFA
[9] = target: recombinant HIV-1 protease (Human immunodeficiency virus type 1 group M subtype B, UniProt P04585); test: HIV-1 Protease Enzyme Assay (Ki); type: biochemical; conditions: class symbols, Table 10; tested form: TFA
[10] = tested on: mutant HIV-1 I50V #2 (L10I/M46I/I50V); test: Resistance Evaluation, I50V #2 fold change; type: cell-based; conditions: EC50 of mutant L10I/M46I/I50V relative to wild type; class symbols; tested form: TFA

CCOC(=O)C(CC)OP(=O)(COc1ccc(C[C@H](NC(=O)O[C@H]2CO[C@H]3OCC[C@H]32)[C@H](O)CN(CC(C)C)S(=O)(=O)c2ccc(OC)cc2)cc1)Oc1ccccc1 (stereo partly drawn)
I50V (#1) fold change [1]: + (>3 to ≦10) | I84V/L90M fold change [2]: − (≦3)

CCCCOC(=O)[C@H](C)NP(=O)(COc1cccc(CN2C(=O)N(Cc3ccc4[nH]nc(N)c4c3)[C@H](Cc3ccccc3)[C@H](O)[C@@H](O)[C@H]2Cc2ccccc2)c1)Oc1ccccc1 (stereo partly drawn)
EC50 [3]: 790 nM | EC50 [4]: > 6000 nM | EC50 [5]: 797 nM | EC50 [6]: 1040 nM | EC50 [7]: 425 nM

CCOC(=O)[C@H](C)OP(=O)(CCNCc1ccc(C[C@H](NC(=O)O[C@H]2CO[C@H]3OCC[C@H]32)[C@H](O)CN(CC(C)C)S(=O)(=O)c2ccc(OC)cc2)cc1)Oc1ccccc1OCC (stereo partly drawn)
I50V (#1) fold change ([1]; tested form: TFA): − (≦3) | I84V/L90M fold change ([2]; tested form: TFA): − (≦3) | EC50 [8]: + + | Ki [9]: + + | I50V (#2) fold change [10]: + +
